Compound potency records, mixed from different reports. Data source: NIAID ChemDB in PubChem.

Common to all: growth or infection tests; organism: HIV-1

Inhibition is in % at the dose shown (toxicity tests: loss of growth or viability).

structure | cells | tested at | endpoint | changes | strain or isolate | read by | setting | value
CC[C@@H](C)[C@H](C(=O)O)N1C[C@H](CN2CCC(c3cc(Cc4ccc(C(F)(F)F)cc4)nn3CC)CC2)[C@@H](c2cccc(F)c2)C1 | HeLa | - | EC90 | - | BaL | β-galactosidase | 50% human serum | 0.1 µM
O=c1[nH]cnc2c1ncn2[C@H]1CC[C@@H](CO)O1 | HeLa | - | fold resistance | RT-A62T V118I M184V | Recombinant | luciferase | - | 1.9
CCn1nc(Cc2ccc(OC)c(C#N)c2)cc1C1CCN(C[C@H]2CN([C@@H](C(=O)O)C(C)(C)C)C[C@@H]2c2cccc(F)c2)CC1 | HeLa | - | EC90 | - | BaL | β-galactosidase | - | <0.00014 µM
Cc1ccnc2c1NC(=O)c1cccnc1N2C1CC1 | CEM + CEM-SS | - | EC50 | RT-P236L | HEPT-resistant (RT P236L) | XTT | - | 0.02 µM
CCOc1cccc(Cc2cc(C3CCN(C[C@H]4CN([C@@H](C(=O)O)[C@@H](C)CC)C[C@@H]4c4cccc(F)c4)CC3)n(CC)n2)c1 | HeLa | - | EC90 | - | BaL | β-galactosidase | 50% human serum | 0.1 µM
Cc1cn([C@H]2C[C@H](N=[N+]=[N-])[C@@H](COP(=O)(O)OC[C@H]3OC(O)[C@H](O)[C@@H](O)[C@@H]3O)O2)c(=O)[nH]c1=O | CEM | 5 µM | inhibition | - | LAV-Bru | RT activity | 26 d | 60%
O=C1N(Cc2ccc(CO)cc2)[C@H](Cc2ccccc2)[C@H](O)[C@@H](O)[C@@H](Cc2ccccc2)N1Cc1ccc(CO)cc1 | MT-4 | - | EC95 | PR-L63P V82T | NL4-3 | p24 | - | 0.4 µM
O=C(O)P(=O)(O)O | PBL | 32 µM | inhibition | - | IIIB | RT activity | 6 d | 92%
Cc1cn([C@H]2C[C@H](N=[N+]=[N-])[C@@H](COP(=O)(O)OC[C@H]3OC(O)[C@@H](O)[C@@H](O)[C@@H]3O)O2)c(=O)[nH]c1=O | CEM | 5 µM | inhibition | - | LAV-Bru | RT activity | 7 d | 93%
CC[C@H](C)[C@H](C(=O)O)N1C[C@H](CN2CCC(c3cc(Cc4cc(C(F)(F)F)cc(C(F)(F)F)c4)nn3CC)CC2)[C@@H](c2cccc(F)c2)C1 | HeLa | - | EC90 | - | BaL | β-galactosidase | 50% human serum | >0.3 µM
Cc1cn([C@H]2C[C@H](N=[N+]=[N-])[C@@H](CO)O2)c(=O)[nH]c1=O | CEM | 1 µM | inhibition | - | LAV-Bru | RT activity | 22 d | 66%
CC[C@H](C)[C@H](C(=O)O)N1C[C@H](CN2CCC(c3cc(Cc4ccc(OC(C)C)cc4)nn3CC)CC2)[C@@H](c2cccc(F)c2)C1 | HeLa | - | EC90 | - | BaL | β-galactosidase | 50% human serum | 0.033 µM
CC(C)CN(C[C@@H](O)[C@H](Cc1ccccc1)NC(=O)[C@H](CC(N)=O)NC(=O)c1ccc2ccccc2n1)C(=O)NC(C)(C)C | MT-4 | - | EC95 | PR-L10R M46I L63P V82T I84V | NL4-3 | p24 | - | 1.5 µM
CC(C)=CCN1Cc2cc(Cl)cc3[nH]c(=S)n(c23)C[C@@H]1C | MT-4 | - | EC95 | RT-D67N K70R T215Y K219Q A98G | - | - | - | >3 µM
O=C1N(Cc2ccc(CO)cc2)[C@H](Cc2ccccc2)[C@H](O)[C@@H](O)[C@@H](Cc2ccccc2)N1Cc1ccc(CO)cc1 | PBMC | 0.07 µM | inhibition | - | IIIB | p24 | - | 90%
CCn1nc(Cc2ccc(O)cc2)cc1C1CCN(C[C@H]2CN([C@@H](C(=O)O)C(C)(C)C)C[C@@H]2c2cccc(F)c2)CC1 | HeLa | - | EC90 | - | BaL | β-galactosidase | - | 0.0004 µM
N#Cc1cc2[nH]c3ccccc3c2n(-c2ccc([N+](=O)[O-])cc2)c1=O | HeLa | - | fold resistance | RT-M184V | Recombinant | luciferase | - | 3.5
CCCc1cc(=O)oc2c3c(c4c(c12)OC(C)(C)C=C4)O[C@H](C)[C@@H](C)[C@@H]3O | CEM + CEM-SS | - | EC50 | RT-V108I | NL4-3 | XTT | - | 0.3 µM
CCOc1ccc(Cc2cc(C3CCN(C[C@H]4CN([C@@H](C(=O)O)[C@H](C)CC)C[C@@H]4c4cccc(F)c4)CC3)n(CC)n2)cc1F | HeLa | - | EC90 | - | BaL | β-galactosidase | 50% human serum | 0.033 µM
Cc1cn([C@H]2C[C@H](N=[N+]=[N-])[C@@H](CO)O2)c(=O)[nH]c1=O | HeLa | - | fold resistance | RT-K65R | NRTI resistant | luciferase | - | 0.6
Cc1ccnc2c1NC(=O)c1cccnc1N2C1CC1 | MAGI | - | EC50 | RT-P236L | NNRTI-resistant (RT P236L) | β-galactosidase | - | 0.056 µM
Cc1cn([C@H]2C[C@H](N=[N+]=[N-])[C@@H](CO)O2)c(=O)[nH]c1=O | CEM + CEM-SS | - | EC50 | RT-A98G | NL4-3 | XTT | - | 0.01 µM
c1cc(CN2CCCNCCNCCCNCC2)ccc1CN1CCCNCCNCCCNCC1 | PBMC | 0.1 µM | inhibition | - | 92US077 CLADE B R5X4 | p24 | - | 76%
CC(C)CN(C[C@@H](O)[C@H](Cc1ccccc1)NC(=O)O[C@H]1CCOC1)S(=O)(=O)c1ccc(N)cc1 | MT-4 | - | EC90 | PR-D30N A71V | NL4-3-P22 (PR D30N A71V) | p24 | - | 0.04 µM
CC(C)=CCOc1cc(NC(=S)c2ccsc2C)ccc1Cl | CEM + CEM-SS | - | fold resistance | RT-L100I | Dihydrocostatolide-resistant (RT-L100I) | XTT | - | 0.6

The first 2 rows once more:

structure,cells,tested at,endpoint,changes,strain or isolate,read by,setting,value
CC[C@@H](C)[C@H](C(=O)O)N1C[C@H](CN2CCC(c3cc(Cc4ccc(C(F)(F)F)cc4)nn3CC)CC2)[C@@H](c2cccc(F)c2)C1,HeLa,-,EC90,-,BaL,β-galactosidase,50% human serum,0.1 µM
O=c1[nH]cnc2c1ncn2[C@H]1CC[C@@H](CO)O1,HeLa,-,fold resistance,RT-A62T V118I M184V,Recombinant,luciferase,-,1.9

Blank or dashed fields: not listed here. Neighbouring rows are from separate reports. Fold resistance has wild type as its base. ECn: concentration that inhibits the pathogen or its effect by n%.